Anti-infective test results gathered from many reports (values: NIAID ChemDB through PubChem).

All rows: tests in culture

ECn: concentration that inhibits the pathogen or its effect by n%.

structure,tested at,strain,method,read-out,conditions,organism,result
COc1c(N2CCNC(C)C2)c(F)cc2c(=O)c(C(=O)O)cn(C3CC3)c12,-,KD2003 (GYRA D95G),-,MIC99,-,Mycobacterium smegmatis,0.49 µg/mL
Cn1cc(/C=N/NC(=S)NN)c2ccccc21,-,1173P2,broth dilution,MIC100,24 h,Mycobacterium bovis BCG,>500 µg/mL
CO[C@H]1/C=C/O[C@@]2(C)Oc3c(C)c(O)c4c(O)c(c(/C=N/N5CCN(C)CC5)c(O)c4c3C2=O)NC(=O)/C(C)=C\C=C\[C@H](C)[C@H](O)[C@@H](C)[C@@H](O)[C@@H](C)[C@H](OC(C)=O)[C@@H]1C,-,CIPT 140310054,-,MIC,-,Mycobacterium avium intracellulare,0.05 µg/mL
C#CCCC,-,1173P2,resazurin,MIC,48 h,Mycobacterium bovis BCG,15.5 µg/mL
C=C[C@]1(C)C=C2[C@H](O)C[C@@H]3C(C)(CCC[C@@]3(C)CO)[C@H]2CC1,100 µg/mL,ITM2515,-,inhibition,-,Mycobacterium avium,inactive
CC[C@@H](CO)NCCN[C@@H](CC)CO,-,1173P2,resazurin,MIC,48 h,Mycobacterium bovis BCG,0.75 µg/mL
Cc1cc(NS(=O)(=O)c2ccc(NC(=O)N(C(C)C)C(C)C)cc2)no1,-,6509/96 clinical isolate,broth dilution / absorbance,MIC100,14 d,Mycobacterium kansasii,500 µM
NC[C@H]1O[C@H](O[C@H]2[C@H](O)[C@@H](O[C@H]3O[C@H](CO)[C@@H](O)[C@H](N)[C@H]3O)[C@H](N)C[C@@H]2N)[C@H](O)[C@@H](O)[C@@H]1O,-,N-919 (HIV-),-,MIC,-,Mycobacterium avium intracellulare,0.5 µg/mL
COc1c(-c2ccccc2)oc2cc3c(c(OC)c2c1=O)OCO3,-,-,-,MIC,-,Mycobacterium phlei,20 µg/mL
CCC1CN(c2c(F)cc3c(=O)c(C(=O)O)cn(C4CC4)c3c2OC)CCN1,-,KD1995 (GYRA D95H),-,MIC99,-,Mycobacterium smegmatis,0.54 µg/mL
CCN1CCN(c2c(F)cc3c(=O)c(C(=O)O)cn(C4CC4)c3c2OC)CC1,-,BCG-CX1 (D94N),-,MIC,-,Mycobacterium bovis,1.2 µg/mL
CCCCCCn1cc(/C=N/Nc2nncs2)c2ccccc21,-,1173P2,broth dilution,MIC100,24 h,Mycobacterium bovis BCG,15.63 µg/mL
CCCN(CCC)C(=O)c1cc(C)cc(C(=O)N[C@@H]([C@@H](O)CNCc2cccc(I)c2)C(F)(F)c2ccccc2)c1,100 µg/disc,ATCC 35775,agar diffusion,zone,-,Mycobacterium kansasii,0 mm
O=C(O)c1ccc(N=Cc2cccc(O)c2O)cc1O,29 µM,BCG,-,inhibition,-,Mycobacterium bovis,20%
CCCCCCn1cc(/C=N/NC(=S)NN)c2ccccc21,-,1173P2,broth dilution,MIC100,48 h,Mycobacterium bovis BCG,>500 µg/mL
O=C(O)c1cn(C2CC2)c2c(F)c(N3CCNCC3)c(F)cc2c1=O,-,KD1987 (GYRA A91V),-,MIC99,-,Mycobacterium smegmatis,0.54 µg/mL
NNC(=O)c1ccncc1,-,A+,-,EC90,-,Mycobacterium aurum,0.03 µg/mL
CCCN(CCC)C(=O)c1cc(C)cc(C(=O)N[C@H]([C@H](O)CNCc2cccc(I)c2)C(F)(F)c2ccccc2)c1,100 µg/disc,262,agar diffusion,zone,-,Mycobacterium kansasii,0 mm
CCCCCNC(=O)Nc1ccc(S(=O)(=O)Nc2cc(C)on2)cc1,-,6509/96 clinical isolate,broth dilution / absorbance,MIC100,7 d,Mycobacterium kansasii,250 µM
CCN1CCN(c2c(F)cc3c(=O)c(C(=O)O)cn(C4CC4)c3c2OC)CC1,-,KD1163 (GRYA+),-,MIC99,-,Mycobacterium smegmatis,0.033 µg/mL
Cc1nn(-c2ccccc2)c2c1C(c1cn(-c3ccccc3)nc1-c1ccc(Cl)cc1)C1=C(NC(C)(c3cc(O)ccc3Cl)NC1=O)O2,0.5 mg/mL,NCIM 5138,agar diffusion / agar,zone,-,Mycobacterium smegmatis,2.3 mm
N/C(=N\N=C\c1ccccc1Sc1ccc(Cl)cc1)c1ccccn1,100 µM,-,-,inhibition,-,Mycobacterium fortuitum,3.7%
C#CCOC(=O)CCCCCC,-,1173P2,resazurin,MIC,48 h,Mycobacterium bovis BCG,125 µg/mL
CCC1CN(c2c(F)cc3c(=O)c(C(=O)O)cn(C4CC4)c3c2F)CCN1,-,KD1998 (GYRA D95N),-,MIC99,-,Mycobacterium smegmatis,1.4 µg/mL
N/C(=N\N=C\c1ccccc1OCc1ccccc1)c1ccccn1,100 µM,-,-,inhibition,-,Mycobacterium fortuitum,4.2%
COc1c(N2CC(C)NC(C)C2)c(F)cc2c(=O)c(C(=O)O)cn(C3CC3)c12,-,KD1991 (GYRA D95Y),-,MIC99,-,Mycobacterium smegmatis,0.51 µg/mL
CC(C)(C)c1ccc(C=O)cc1,1000 µM,-,-,inhibition,-,Mycobacterium fortuitum,5.5%
C[C@@H]1CN(c2c(F)c(N)c3c(=O)c(C(=O)O)cn(C4CC4)c3c2F)C[C@H](C)N1,-,37 strains,-,MIC90,-,Mycoplasma hominis,0.063 µg/mL
COc1cc(Cc2cnc(N)nc2N)cc(OC)c1Br,-,Isolate 94-886,-,MIC,-,Mycobacterium ulcerans,16 µg/mL
COc1c(O)cc2oc(-c3ccccc3)cc(=O)c2c1OC,-,-,-,MIC,-,Mycobacterium phlei,75 µg/mL
CCCc1c2c([nH]c(=O)c1C)C(=O)c1[nH]c(=O)c(C)c(CCC)c1C2=O,-,ATCC 927,resazurin / fluorescence,MIC90,-,Mycobacterium marinum,>7.5 µg/mL
CCN1CCN(c2cc3c(cc2F)c(=O)c(C(=O)O)cn3C2CC2)CC1,-,BCG-KD1295 (WILD TYPE),-,MIC,-,Mycobacterium bovis,0.11 µg/mL
NC[C@H]1O[C@H](O[C@H]2[C@H](O)[C@@H](O[C@H]3O[C@H](CO)[C@@H](O)[C@H](N)[C@H]3O)[C@H](N)C[C@@H]2N)[C@H](O)[C@@H](O)[C@@H]1O,-,-,-,MIC,-,Mycobacterium phlei,2 µg/mL
NCC[C@H](O)C(=O)N[C@@H]1C[C@H](N)[C@@H](O[C@H]2O[C@H](CN)[C@@H](O)[C@H](O)[C@H]2O)[C@H](O)[C@H]1O[C@H]1O[C@H](CO)[C@@H](O)[C@H](N)[C@H]1O,-,103,resazurin,MIC90,-,Mycobacterium abscessus,24 µM
Cc1nn(-c2ccccc2)c2c1C(c1cn(-c3ccccc3)nc1-c1ccc(F)cc1)C1=C(NC(C)(c3cc(O)c(Cl)c(O)c3)NC1=O)O2,0.1 mg/mL,NCIM 5138,agar diffusion / agar,zone,-,Mycobacterium smegmatis,4.5 mm
NCC[C@H](O)C(=O)N[C@@H]1C[C@H](N)[C@@H](O[C@H]2O[C@H](CN)[C@@H](O)[C@H](O)[C@H]2O)[C@H](O)[C@H]1O[C@H]1O[C@H](CO)[C@@H](O)[C@H](N)[C@H]1O,-,37 clinical isolates,-,MIC50,-,Mycobacterium marinum,1.5 µg/mL
Cc1cc(-c2cc3c(cc2F)c(=O)c(C(=O)O)cn3C2CC2)cc(C)n1,-,37 strains,-,MIC50,-,Mycoplasma hominis,0.004 µg/mL
C#Cc1ccccc1,-,1173P2,resazurin,MIC,48 h,Mycobacterium bovis BCG,31.25 µg/mL
O=C(NO)c1ccc(Cl)cc1,2000 µM,ATCC 10240,agar diffusion / agar,zone,-,Mycobacterium luteus,0 mm
NC[C@H]1O[C@H](O[C@H]2[C@H](O)[C@@H](O[C@H]3O[C@H](CO)[C@@H](O)[C@H](N)[C@H]3O)[C@H](N)C[C@@H]2N)[C@H](O)[C@@H](O)[C@@H]1O,-,Isolate C-45,-,MIC,-,Mycobacterium avium complex,25 µg/mL
O=C(NOCc1ccccc1)c1cc([N+](=O)[O-])cc(C(F)(F)F)c1,-,IMET 10670,resazurin,MIC,-,Mycobacterium vaccae,3.13 µM
Cc1nn(-c2ccccc2)c2c1C(c1cn(-c3ccccc3)nc1-c1ccc(F)cc1)C1=C(NC(C)(c3cc(O)c(I)cc3Cl)NC1=O)O2,-,NCIM 2240,agar diffusion / agar,MIC,-,Mycobacterium phlei,60 µg/mL
C[C@H]1COC2(CCN(c3nc(=O)c4cc(C(F)(F)F)cc(C(=O)O)c4s3)CC2)O1,-,2005-0524,resazurin,MIC99,-,Mycobacterium abscessus,>100 µg/mL
CC(C)=CCC/C(C)=C/CNCCNC1C2CC3CC(C2)CC1C3,100 µg/disc,262,agar diffusion,zone,-,Mycobacterium kansasii,54 mm
NC(=O)c1c(NC(=O)C2CC2)sc2cc(O)c(Br)cc12,-,Strain M,resazurin / absorbance,MIC,-,Mycobacterium marinum,>100 µM
CO[C@H]1/C=C/O[C@@]2(C)Oc3c(C)c(O)c4c(O)c(c5c(c4c3C2=O)NC2(CCN(CC(C)C)CC2)N=5)=NC(=O)/C(C)=C\C=C\[C@H](C)[C@H](O)[C@@H](C)[C@@H](O)[C@@H](C)[C@H](OC(C)=O)[C@@H]1C,-,Isolate 90-1625,-,MIC,-,Mycobacterium avium,1 µg/mL
CO[C@H]1/C=C/O[C@@]2(C)Oc3c(C)c(O)c4c(O)c(c(/C=N/N5CCN(C)CC5)c(O)c4c3C2=O)NC(=O)/C(C)=C\C=C\[C@H](C)[C@H](O)[C@@H](C)[C@@H](O)[C@@H](C)[C@H](OC(C)=O)[C@@H]1C,-,JLS,-,MIC,-,Mycobacterium spp.,0.5–5 µg/mL
CCCN(CCC)C(=O)c1cc(C)cc(C(=O)N[C@@H](Cc2cc(F)cc(F)c2)[C@H](O)CNCc2cccc(I)c2)c1,100 µg/disc,262,agar diffusion,zone,-,Mycobacterium kansasii,14 mm
O=C(O)c1ccc(N=Cc2c(O)ccc3ccccc23)cc1O,26 µM,BCG,-,inhibition,-,Mycobacterium bovis,90%
CO[C@H]1/C=C/O[C@@]2(C)Oc3c(C)c(O)c4c(O)c(c5c(c4c3C2=O)NC2(CCN(CC(C)C)CC2)N=5)=NC(=O)/C(C)=C\C=C\[C@H](C)[C@H](O)[C@@H](C)[C@@H](O)[C@@H](C)[C@H](OC(C)=O)[C@@H]1C,-,20 isolates,-,MIC90,-,Mycobacterium avium intracellulare,1 µg/mL
O=C(N[C@H]([C@H](O)CNCc1cccc(I)c1)C(F)(F)c1ccccc1)OCc1ccccc1,50 µg/disc,LCA-13,agar diffusion,zone,-,Mycobacterium marinum,8 mm
CCCCNC(=O)Nc1ccc(S(=O)(=O)Nc2cc(C)on2)cc1,-,6509/96 clinical isolate,broth dilution / absorbance,MIC100,7 d,Mycobacterium kansasii,250 µM
O=C(NOCc1ccccc1)c1ccc(Cl)cc1,2000 µM,ATCC 10240,agar diffusion / agar,zone,-,Mycobacterium luteus,19 mm
CO[C@H]1/C=C/O[C@@]2(C)Oc3c(C)c(O)c4c(O)c(c(/C=N/N5CCN(C)CC5)c(O)c4c3C2=O)NC(=O)/C(C)=C\C=C\[C@H](C)[C@H](O)[C@@H](C)[C@@H](O)[C@@H](C)[C@H](OC(C)=O)[C@@H]1C,10 µg/mL,Serovar 8,-,inhibition,-,Mycobacterium avium intracellulare,90%
COc1c(N2CCN(C(C)C)CC2)c(F)cc2c(=O)c(C(=O)O)cn(C3CC3)c12,-,KD2008 (GYRA G89C),-,MIC99,-,Mycobacterium smegmatis,7.5 µg/mL
CCOc1cc(Cc2cnc(N)nc2N)cc(OCC)c1-n1cccc1,-,Isolate 94-886,-,MIC,-,Mycobacterium ulcerans,1 µg/mL
O=C(O)c1ccc(N=Cc2ccccn2)cc1O,33 µM,BCG,-,inhibition,-,Mycobacterium bovis,70%
CC(C)(C)[Si](C)(C)ONC(=O)c1ccccc1,-,IMET 10670,resazurin,MIC,-,Mycobacterium vaccae,12.5 µM
O=Cc1cccc2ccccc12,1000 µM,-,-,inhibition,-,Mycobacterium fortuitum,7.5%
Clc1ccccc1Cn1cc(/C=N/Nc2nncs2)c2ccccc21,-,1173P2,broth dilution,MIC100,48 h,Mycobacterium bovis BCG,31.25 µg/mL
C[C@H]1NCc2cc(-c3ccc4c(=O)c(C(=O)O)cn(C5CC5)c4c3OC(F)F)ccc21,-,A28314,-,MIC,-,Mycobacterium smegmatis,0.13 µg/mL
C[C@H]1c2cccc(O)c2C(O)=C2C(=O)[C@]3(O)C(O)=C(C(N)=O)C(=O)[C@@H](N(C)C)[C@@H]3[C@@H](O)[C@@H]21,-,37 clinical isolates,-,MIC90,-,Mycobacterium marinum,6 µg/mL
COc1c(-c2ccccc2)oc2cc3c(c(O)c2c1=O)OCO3,-,-,-,MIC,-,Mycobacterium phlei,75 µg/mL
N/C(=N\N=C1CCCCCCCCCCC1)c1ccccn1,100 µM,-,-,inhibition,-,Mycobacterium fortuitum,2.1%
O=c1c(O)c(-c2ccccc2)oc2cc(O)cc(O)c12,-,-,-,MIC,-,Mycobacterium phlei,50 µg/mL
C#CCO,-,1173P2,resazurin,MIC,48 h,Mycobacterium bovis BCG,125 µg/mL
Cc1nn(-c2ccccc2)c2c1C(c1cn(-c3ccccc3)nc1-c1ccc(Cl)cc1)C1=C(NC(C)(c3cc(O)cc(O)c3)NC1=O)O2,1 mg/mL,NCIM 5138,agar diffusion / agar,zone,-,Mycobacterium smegmatis,3.2 mm
CCCCCCCNC(=O)Nc1ccc(S(=O)(=O)Nc2cc(C)on2)cc1,-,6509/96 clinical isolate,broth dilution / absorbance,MIC100,7 d,Mycobacterium kansasii,4 µM
O=C(O)c1cc(C(F)(F)F)cc2c(=O)nc(N3CCN(CC4CCCCC4)CC3)sc12,-,ATCC 15483,resazurin,MIC99,-,Mycobacterium vaccae,>100 µg/mL

Again, the opening 4 rows:

structure | tested at | strain | method | read-out | conditions | organism | result
COc1c(N2CCNC(C)C2)c(F)cc2c(=O)c(C(=O)O)cn(C3CC3)c12 | - | KD2003 (GYRA D95G) | - | MIC99 | - | Mycobacterium smegmatis | 0.49 µg/mL
Cn1cc(/C=N/NC(=S)NN)c2ccccc21 | - | 1173P2 | broth dilution | MIC100 | 24 h | Mycobacterium bovis BCG | >500 µg/mL
CO[C@H]1/C=C/O[C@@]2(C)Oc3c(C)c(O)c4c(O)c(c(/C=N/N5CCN(C)CC5)c(O)c4c3C2=O)NC(=O)/C(C)=C\C=C\[C@H](C)[C@H](O)[C@@H](C)[C@@H](O)[C@@H](C)[C@H](OC(C)=O)[C@@H]1C | - | CIPT 140310054 | - | MIC | - | Mycobacterium avium intracellulare | 0.05 µg/mL
C#CCCC | - | 1173P2 | resazurin | MIC | 48 h | Mycobacterium bovis BCG | 15.5 µg/mL

An empty or dashed field is not shown. MIC50, MIC90 and the like: level of inhibition, or share of isolates inhibited. Rows are shuffled and stem from different studies. "inactive" is the filed call at that dose; no cut-off is given. Zone: diameter of growth inhibition. a–b is a range or a potency band. Inhibition is in % at the dose shown (toxicity tests: loss of growth or viability).